Experimental data published in patent US20200200749A1 (published 2020).

How the values were obtained:
Assay in all cases: ELISA
[1] = target: T1, EBOV GP (recombinant, full-length extracellular domain) (EBOV (Ebola Zaire), UniProt Q05320 33-650)
T1 chain: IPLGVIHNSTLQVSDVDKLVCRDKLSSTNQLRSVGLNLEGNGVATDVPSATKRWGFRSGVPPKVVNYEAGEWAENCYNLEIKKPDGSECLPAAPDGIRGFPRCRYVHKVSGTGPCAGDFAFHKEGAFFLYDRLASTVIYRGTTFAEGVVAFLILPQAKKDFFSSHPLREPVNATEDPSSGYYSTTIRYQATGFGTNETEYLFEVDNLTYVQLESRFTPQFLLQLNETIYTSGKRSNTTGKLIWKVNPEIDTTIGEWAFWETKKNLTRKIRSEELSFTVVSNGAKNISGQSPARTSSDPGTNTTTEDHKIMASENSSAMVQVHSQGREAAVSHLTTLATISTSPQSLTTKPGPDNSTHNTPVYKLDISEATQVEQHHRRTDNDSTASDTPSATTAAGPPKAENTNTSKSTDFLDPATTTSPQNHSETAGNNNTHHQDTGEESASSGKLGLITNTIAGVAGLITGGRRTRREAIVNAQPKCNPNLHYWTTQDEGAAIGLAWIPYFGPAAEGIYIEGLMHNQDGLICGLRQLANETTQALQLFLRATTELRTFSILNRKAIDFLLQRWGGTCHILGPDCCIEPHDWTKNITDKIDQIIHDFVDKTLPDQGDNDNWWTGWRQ

EBOV sGP = target: T2, EBOV sGP (EBOV (Ebola Zaire), UniProt P60170 33-324)
T2 chain: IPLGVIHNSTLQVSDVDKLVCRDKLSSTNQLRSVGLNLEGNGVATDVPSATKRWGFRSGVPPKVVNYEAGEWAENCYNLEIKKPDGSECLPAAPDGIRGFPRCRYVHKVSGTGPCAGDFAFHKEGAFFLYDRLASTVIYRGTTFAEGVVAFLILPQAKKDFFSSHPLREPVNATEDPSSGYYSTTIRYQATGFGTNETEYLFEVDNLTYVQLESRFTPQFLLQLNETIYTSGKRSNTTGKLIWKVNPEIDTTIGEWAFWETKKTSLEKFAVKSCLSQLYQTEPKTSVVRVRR

SUDV GP (recombinant) = target: T3, SUDV GP (recombinant) (SUDV (Sudan ebolavirus), UniProt Q66814 33-650)
T3 chain: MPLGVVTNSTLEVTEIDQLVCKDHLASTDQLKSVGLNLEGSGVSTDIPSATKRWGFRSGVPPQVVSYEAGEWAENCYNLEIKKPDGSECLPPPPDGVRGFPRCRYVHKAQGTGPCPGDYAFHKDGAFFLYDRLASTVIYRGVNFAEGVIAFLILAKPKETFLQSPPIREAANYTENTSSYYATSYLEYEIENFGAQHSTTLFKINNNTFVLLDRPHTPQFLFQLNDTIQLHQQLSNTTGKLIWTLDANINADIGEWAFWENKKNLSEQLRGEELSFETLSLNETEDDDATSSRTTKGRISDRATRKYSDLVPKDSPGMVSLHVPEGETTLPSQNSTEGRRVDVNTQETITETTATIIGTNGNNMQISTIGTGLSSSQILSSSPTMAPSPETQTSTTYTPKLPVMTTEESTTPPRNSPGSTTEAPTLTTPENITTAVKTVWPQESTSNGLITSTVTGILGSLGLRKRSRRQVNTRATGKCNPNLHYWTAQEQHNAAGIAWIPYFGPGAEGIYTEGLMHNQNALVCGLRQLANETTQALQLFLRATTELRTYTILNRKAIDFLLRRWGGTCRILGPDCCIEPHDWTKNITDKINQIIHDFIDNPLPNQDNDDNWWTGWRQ

MARV GP = target: MARV GP

B1: EBOV157 (antibody, V domains shown)
VH: QVQLVQSGGGLVQPGGSLRLSCAASGFTVSNNYMSWVRQAPGKGLEWVSIFYSDGTTYNADSVKGRFTISRDNSKNTLYLQMNSLRAEDTAVYYCARQASGYDAYYMDVWGQGTLVTVSS
VL: DIVMTQSPSTLSASVGDRVTITCRASQSINSWLAWYQQKPGKAPKLLIYQASTLERGVPSRFSGSGAGTEFTLTISSLQPDDFATYYCQQYSSFPLTFGGGTKVELK
[1]
  EC50: 0.126 µg/mL
EBOV sGP
  EC50: 1.45 µg/mL
SUDV GP (recombinant)
  EC50: > 10 µg/mL

B2: 157 (antibody, V domains shown)
VH: QVQLVQSGGGLVQPGGSLRLSCAASGFTVSNNYMSWVRQAPGKGLEWVSIFYSDGTTYNADSVKGRFTISRDNSKNTLYLQMNSLRAEDTAVYYCARQASGYDAYYMDVWGQGTLVTVSS
VL: DIVMTQSPSTLSASVGDRVTITCRASQSINSWLAWYQQKPGKAPKLLIYQASTLERGVPSRFSGSGAGTEFTLTISSLQPDDFATYYCQQYSSFPLTFGGGTKVELK
MARV GP
  EC50: > 10 µg/mL
